# Source: patent publication US9175077B2, “Nucleic acids encoding biologically active polypeptides derived from a novel early stage pregnancy factor designated maternin (MA)” (NOBEL BIOSCIENCES LLC, priority 1999, dated 2015)
# Columns and labels:
# HIV-1 gene expression = experiment: HIV-1 transgenic mice, pups feeding from treated mothers; conditions: mouse, in vivo
# Excerpt: The transgenic mice contain 5.1 kb of the HIV-1 proviral genome, lacking gag and pol genes and 2.3 kb of vector.^172 The newly developed transgenic rat contains the same HIV-1 sequences and vector. In both birth weights and features, the homozygous animals are born with normal weight and gross appearance, but in untreated animals shortly after birth, high levels of env and regulatory genes are expressed promptly correlating with failure to develop, cachexia, hyperkeratosis, immune abnormalities, kidney and CNS lesions, and early mortality (death of >90% by 10 days of age).
# Twenty-four hours after birth the mothers were either inoculated subcutaneously daily for 10 days or received an implanted osmotic pump delivering 30-150 pmoles of either native or synthetic MA or pMA. Various control polypeptides were used at equimolar or vast molar excess. The newborn pups were then allowed to feed from the foster mother breast milk over the entire period. Since the animals are at risk from needle inoculation, breastfeeding was the chosen route for MA administration.
# In these experiments total RNA was extracted from samples of skin RNA206 10 days after birth of MA treated and untreated mice. One ug of RNA was reverse transcribed into cDNA using random hexamer primer and […] reverse transcriptase (Life Technologies, Inc.) in a final vol. Of 30 ul. Three ul of each reaction was used for PCR amplification of the HIV-1 gene sequences (env, tat, nef, and rev) as described […], and glyceraldehyde 3-phosphate dehydrogenase (GAPDH) was amplified from each sample for normalization. After 25 cycles, 10% of the products were resolved by electrophoresis on 2% agarose gels, transferred to nitrocellulose membranes by Southern blotting, and hybridized to fluorescein isthiocyanate-labeled oligonucleotide probes complementary to internal sequences of the amplicons […]. Bound probes were detected by chemiluminescence (Amersham) and relative mRNA levels determined by densitrometry after normalization with GAPDH mRNA levels.
# HIV-1 = conditions: controls at similar, equimolar or higher concentrations
# Procedure: Virus (MOI of 0.001) was added to 10^6 cells in RPMI-1640 with 10% FCS. One hour later the various polypeptides were added once. The cells cultured for 3 days with 5 ug PHA and 20 i.m. of II-2/ml at 37°, after which virus was estimated by determining p24 (HIV-1) or p27 (SIV) (Organon-Teknika).
# The effect of native and synthetic MA on HIV-1 infection in vitro was evaluated using PHA and II-2 stimulated primary peripheral blood cells (PBMC), CD4+ T-cells enriched fractions from PBMC, and CD14+ macrophage enriched fractions. Infection was with HIV-1 IIIB (PBMC and CD4+ T-cells), HIV-1 Ba-L (macrophages), and two primary HIV-1 isolates not passaged in any cell line (PBMC).
Substance,HIV-1 viral expression in tissues (HIV-1 gene expression),mice dead by day 10 (HIV-1 gene expression),inhibition of HIV replication (qualitative) (HIV-1)
recombinant hCG: recombinant hCG [reference compound],high expression,10 of 10,
CR127: highly purified native hCG [reference compound],high expression,10 of 10,
α-hCG: α-chain of hCG [reference compound],,,no effect
